Data as given in PubChem BioAssay AID624099 (ICCB-Longwood, 2012).
The deposit covers about 21,000 reagents; below is a part drawn at random. 497 of all reagents (2.4%) count as active. 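Higher z means weaker E2 silencing; only reporter increases were scored, and knock-downs that hurt cell survival may mask genuine repressor factors.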 Entries without a mark were called inactive. Reagents against one gene are numbered here.

Test: 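Knock-downs relieving repression by E2 of an HPV18 LCR luciferase reporter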 (primary screen)
Cell system: human C33A cervical carcinoma cells (HPV-negative) stably expressing BPV1 E2 and an HPV18 LCR luciferase reporter
Reagent: siRNA pool against human genes, 40 nM
Duration: 72 h
Measured: 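HPV18 LCR reporter light per well, converted to plate-wise z-scores that exclude control wells, and averaged over triplicate plates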
Reading the numbers: mean z-score and z-score: higher = stronger reporter signal, weaker E2 silencing
Active means: 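Hit if mean z-score reaches 2 and two or more of three replicate z-scores also reach 2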

| mean z-score | z-score, replicate A | z-score, replicate B | z-score, replicate C | gene | pool no. |
| --- | --- | --- | --- | --- | --- |
| -1.5 | -1.63 | -1.5 | -1.38 | CPB1 | 1 |
| 1.95 | 2.19 | 1.49 | 2.18 | TMEM74 | 1 |
| 0.17 | -0.04 | 0.45 | 0.1 | PROP1 | 1 |
| -0.28 | -0.25 | -0.13 | -0.45 | TPTEP2 | 1 |
| -0.39 | -0.77 | -0.47 | 0.07 | GYS1 | 1 |
| 0.58 | 0.48 | 0.58 | 0.68 | KRT83 | 1 |
| -0.61 | -0.58 | -0.67 | -0.57 | BCAS1 | 1 |
| 1.37 | 1.23 | 1.96 | 0.91 | FRK | 1 |
| 0.09 | 0.36 | 0.35 | -0.43 | ECE2 | 1 |
| -0.93 | -0.74 | -1.17 | -0.87 | ECE2 | 2 |
| 0.86 | 1.04 | 0.86 | 0.67 | STK32C | 1 |
| 0.06 | 0.29 | -0.14 | 0.03 | NOVA1-DT | 1 |
| -1.15 | -1.08 | -1.12 | -1.24 | HTT | 1 |
| 0.76 | 1.15 | 0.61 | 0.52 | WDR6 | 1 |
| 1.89 | 2.08 | 1.9 | 1.71 | LOC388586 (retired record) | 1 |
| -0.15 | -0.13 | -0.32 | 0.01 | PGRMC2 | 1 |
| -1.21 | -1.31 | -1.22 | -1.1 | H2AC4 | 1 |
| -0.63 | -0.89 | -0.43 | -0.58 | PDGFC | 1 |
| -1.05 | -0.47 | -1.2 | -1.47 | VCX3A | 1 |
| -0.72 | -0.7 | -0.47 | -0.98 | ADGRE1 | 1 |
| -0.47 | -0.42 | -0.44 | -0.55 | DDRGK1 | 1 |
| 1 | 0.76 | 1.09 | 1.15 | CAMP | 1 |
| -0.11 | -0.23 | -0.02 | -0.1 | CASQ2 | 1 |
| -0.46 | -0.42 | -0.57 | -0.38 | FBLN1 | 1 |
| 0.36 | 0.32 | 0.41 | 0.34 | GPR34 | 1 |
| -0.08 | -0.19 | 0.43 | -0.48 | TWF1 | 1 |
| -0.29 | -0.54 | -0.11 | -0.23 | TMX4 | 1 |
| 0.17 | -0.39 | 0.45 | 0.46 | EXD1 | 1 |
| 0.14 | 0.12 | 0.26 | 0.03 | BCL2L11 | 1 |
| -0.03 | 0.23 | -0.05 | -0.25 | KRT20 | 1 |
| -0.24 | -0.29 | -0.35 | -0.07 | TMEM41A | 1 |
| -1.03 | -1.16 | -1.02 | -0.9 | CBX2 | 1 |
| -0.93 | -0.94 | -0.96 | -0.89 | IGSF1 | 1 |
| -1.97 | -1.95 | -2.04 | -1.92 | RPS27A | 1 |
| 0.44 | 0.39 | 0.56 | 0.37 | TSPEAR | 1 |
| -0.23 | -0.12 | -0.11 | -0.48 | MAPRE1 | 1 |

Targets above whose target name begins with E or e (3):
| mean z-score | z-score, replicate A | z-score, replicate B | z-score, replicate C | gene | pool no. |
| --- | --- | --- | --- | --- | --- |
| 0.09 | 0.36 | 0.35 | -0.43 | ECE2 | 1 |
| -0.93 | -0.74 | -1.17 | -0.87 | ECE2 | 2 |
| 0.17 | -0.39 | 0.45 | 0.46 | EXD1 | 1 |

More records follow:
| mean z-score | z-score, replicate A | z-score, replicate B | z-score, replicate C | gene | pool no. |
| --- | --- | --- | --- | --- | --- |
| -0.58 | -0.54 | -0.45 | -0.75 | PPFIBP2 | 1 |
| -0.42 | -0.29 | -0.32 | -0.65 | MBOAT2 | 1 |
| 2.09 (active) | 2.2 | 1.99 | 2.08 | GRM6 | 1 |
| -0.89 | -0.98 | -0.75 | -0.93 | ABCB10 | 1 |
| -1.43 | -1.24 | -1.54 | -1.53 | BRMS1 | 1 |
| 0.38 | 0.35 | 0.35 | 0.45 | SNX2 | 1 |
| -0.33 | -0.14 | -0.36 | -0.48 | TRMT9B | 1 |
| 0.37 | 0.3 | 0.05 | 0.77 | TRMT9B | 2 |
| -1.14 | -1.03 | -1.05 | -1.35 | PIGQ | 1 |
| 0.35 | 0.34 | 0.47 | 0.25 | GSTT4 | 1 |
| -0.09 | -0.31 | -0.09 | 0.12 | PURB | 1 |
| 1.24 | 1.49 | 1.28 | 0.94 | SETD9 | 1 |
| 2.14 (active) | 2.28 | 1.98 | 2.15 | HOMER2 | 1 |
| -0.27 | -0.07 | -0.3 | -0.43 | GJC3 | 1 |
| 0.6 | 0.9 | 0.25 | 0.66 | TMEM171 | 1 |
| 1.87 | 2.02 | 1.94 | 1.66 | AKR1C8 | 1 |
| -0.2 | 0 | -0.44 | -0.18 | GTF2F1 | 1 |
| -0.65 | -0.73 | -0.8 | -0.42 | OVOL1 | 1 |
| -0.19 | -0.28 | -0.08 | -0.21 | TPSG1 | 1 |
| 0.67 | 0.62 | 0.88 | 0.5 | RAD52 | 1 |
| -0.63 | -0.28 | -0.93 | -0.68 | UPB1 | 1 |
